Earlier results on five molecules are cited in US8357692B2, “Methods of treatment of bone degenerative diseases” (Washington University, priority 2010, dated 2013).

The test system of this data set is P. falciparum FCR-3. Particulars: cytotoxicity/antimalarial activity, cited from earlier work.

Read-outs that look alike come from different tables or passages of the source. Where only a bound is given, the exact number is not on record here.

`C[C@@H]1CC[C@H]2[C@@H](C)C(=O)O[C@@H]3O[C@@]4(C)CC[C@@H]1[C@]32OO4` [artemisinin]: the selectivity (Table 1) is listed as 1000.
As for `CNc1ccccc1C(=O)N[C@H]1C(O)=C[C@@H]2[C@@H](O)CCCN2C1(C)C` [compound 39], the selectivity (Table 2) is listed as over 28.
Take `CC1(C)[C@@H](N2CNc3ccccc3C2=O)C(O)=C[C@@H]2[C@@H](O)CCCN21` [compound 38]: the selectivity (Table 2) is on record as over 38.
`O=C(C[C@H]1NCCC[C@@H]1O)Cn1cnccc1=O` [compound 12]: the selectivity (Table 1) is recorded as over 32.
With `O=C(C[C@H]1NCCC[C@@H]1O)Cn1ccc2ccccc2c1=O` [compound 14], the selectivity (Table 1) was over 32.
